Anti-infective test results gathered from many reports (values: NIAID ChemDB through PubChem).

Common to all: growth or infection tests; organism: Candida krusei

A number after MIC or MFC names an inhibition level or a share of isolates. Inhibition is in % at the dose shown (toxicity tests: loss of growth or viability). Lines come from different laboratories, so protocols vary. ECn: concentration that inhibits the pathogen or its effect by n%. Zones are inhibition diameters on agar.

{"structure": "COc1cc(C2=C(c3ccc(F)cc3)COC2=O)ccc1OCC(O)(Cn1cncn1)c1ccc(F)cc1F", "strain": "ATCC 6258", "method": "broth dilution", "endpoint": "MIC50", "result": "16 µg/mL"}
{"structure": "NC(=O)c1cc[n+](Cc2ccc(C[n+]3ccc(/C=N/O)cc3)s2)cc1.[Cl-].[Cl-]", "method": "broth dilution", "endpoint": "EC50", "result": ">20 µg/mL"}
{"structure": "OC(CNCCCOc1ccc(Br)cc1)(Cn1cncn1)c1ccc(F)cc1F", "endpoint": "EC80", "result": "<0.125 µg/mL"}
{"structure": "CCCCCCCCCCCCn1cc[n+](COCCCCCOC[n+]2ccn(CCCCCCCCCCCC)c2)c1", "strain": "ATCC 6258", "method": "agar diffusion", "endpoint": "MIC100", "result": "4 µM"}
{"structure": "C[C@@H](N1CCN(Cc2cn(Cc3ccc(Cl)cc3)c3c(Cl)cccc23)CC1)[C@](O)(Cn1cncn1)c1ccc(F)cc1F", "strain": "ATCC 6258", "method": "resazurin", "endpoint": "MIC80", "result": "1 µg/mL"}
{"structure": "Cc1ccc(-c2c3c(N)c4c(nc3nc3c2c(C)nn3-c2ccccc2)CCCC4)cc1", "strain": "CCC 117", "method": "broth dilution / absorbance", "endpoint": "MIC100", "result": "15.6 µg/mL"}
{"structure": "CCCCCCCCCCCCCCn1cc[n+](COCCCCCCOC[n+]2ccn(CCCCCCCCCCCCCC)c2)c1", "strain": "ATCC 6258", "method": "agar diffusion", "endpoint": "MIC100", "result": "2 µM"}
{"structure": "C/C(C=O)=C\\c1ccccc1", "strain": "ATCC 6258", "method": "agar diffusion", "endpoint": "MIC90", "result": "400 µM"}
{"structure": "O=C(CCn1ccnc1)c1cccc(C(O)c2ccc(Br)cc2)c1", "strain": "RTCC 1090", "method": "broth dilution", "endpoint": "MIC", "result": ">64 µg/mL"}
{"structure": "CC(C)(O)c1cn(-c2ccc3ccccc3c2)nn1", "strain": "URM 4802", "method": "broth dilution", "endpoint": "inhibition", "tested at": "2048 µg/mL", "result": "0%"}
{"structure": "C[C@@H](N1CCN(Cc2cn(Cc3ccc(F)cc3F)c3c(C#N)cccc23)CC1)[C@](O)(Cn1cncn1)c1ccc(F)cc1F", "strain": "ATCC 6258", "method": "resazurin", "endpoint": "MIC80", "result": "32 µg/mL"}
{"structure": "ON=Cc1ccc[n+](Cc2csc3ccccc23)c1.[Cl-]", "method": "broth dilution", "endpoint": "EC50", "result": ">20 µg/mL"}
{"structure": "CCCn1cc[n+](COCCCCCOC[n+]2ccn(CCC)c2)c1", "strain": "ATCC 6258", "method": "agar diffusion", "endpoint": "MIC100", "result": "2966 µM"}
{"structure": "NC(=O)c1cc[n+](Cc2ccc(C[n+]3ccc(C(N)=O)cc3)o2)cc1.[Br-].[Br-]", "method": "broth dilution", "endpoint": "EC50", "result": ">20 µg/mL"}
{"structure": "O=C(O)Cc1ccc(OCC(O)(Cn2cncn2)c2ccc(F)cc2F)cc1", "strain": "ATCC 6258", "method": "broth dilution", "endpoint": "MIC50", "result": "128 µg/mL"}
{"structure": "C[C@@H](N1CCN(Cc2cn(Cc3ccc(F)cc3F)c3c(F)cccc23)CC1)[C@](O)(Cn1cncn1)c1ccc(F)cc1F", "strain": "ATCC 6258", "method": "resazurin", "endpoint": "MIC80", "result": "0.5 µg/mL"}
{"structure": "CN(CC(=O)Nc1ccccc1)CC(O)(Cn1cncn1)c1ccc(F)cc1F", "endpoint": "MIC80", "result": "16 µg/mL"}
{"structure": "CCCCCn1cc[n+](COCCCCCCOC[n+]2ccn(CCCCC)c2)c1", "strain": "ATCC 6258", "method": "agar diffusion", "endpoint": "MIC100", "result": "631 µM"}
{"structure": "O/N=C/c1cccc[n+]1Cc1ccc(Br)s1.[Cl-]", "method": "broth dilution", "endpoint": "EC50", "result": ">20 µg/mL"}
{"structure": "CC(C)CC(O)C(=O)O", "strain": "D 206 B", "method": "broth dilution", "endpoint": "EC50", "result": "36000 µg/mL"}
{"structure": "O=C(CCn1ccnc1)c1ccc2ccccc2c1", "strain": "RTCC 1090", "method": "broth dilution", "endpoint": "MIC", "result": "16 µg/mL"}
{"structure": "CC(C)C(NC(=O)C(N)Cc1ccccc1)C(=O)NC(CCCN=C(N)N)C(=O)O", "strain": "ATCC 6258", "method": "broth dilution", "endpoint": "MFC", "result": "685 µg/mL"}
{"structure": "Cc1cc(C)cc(NC(=O)CN(C)CC(O)(Cn2cncn2)c2ccc(F)cc2F)c1", "endpoint": "MIC80", "result": "16 µg/mL"}
{"structure": "COc1cc(/C=C2\\SC(=S)NC2=O)ccc1OCC(O)(Cn1cncn1)c1ccc(F)cc1F", "strain": "ATCC 6258", "method": "broth dilution", "endpoint": "MIC50", "result": "16 µg/mL"}
{"structure": "Clc1ccc(C(c2ccccc2)n2cncn2)cc1", "method": "agar", "endpoint": "MIC90", "result": "256 µg/mL"}
{"structure": "C=CCc1ccc(O)c(OC)c1", "strain": "337", "method": "turbidity", "endpoint": "MIC90", "result": "500 µg/mL"}
{"structure": "Cc1ccc(-c2c3c(N)c4c(nc3nc3c2c(C)nn3-c2ccccc2)CCC4)cc1", "strain": "CCC 117", "method": "broth dilution / absorbance", "endpoint": "MIC50", "result": "62.5 µg/mL"}
{"structure": "Cc1ccc(NC(=O)CN(C)CC(O)(Cn2cncn2)c2ccc(F)cc2F)c(C)c1", "endpoint": "MIC80", "result": "4 µg/mL"}
{"structure": "CC(=O)Nc1ccc(C(=O)N/N=C/c2cccc(O)c2)cc1", "strain": "ATCC 6258", "method": "broth dilution", "endpoint": "EC50", "result": "34 µM"}
{"structure": "CN(CC(=O)Nc1ccccc1[N+](=O)[O-])CC(O)(Cn1cncn1)c1ccc(F)cc1F", "endpoint": "MIC80", "result": "4 µg/mL"}
{"structure": "CCCCCCCCCCCCn1cc[n+](COCCCCCCOC[n+]2ccn(CCCCCCCCCCCC)c2)c1", "strain": "ATCC 6258", "method": "agar diffusion", "endpoint": "MIC100", "result": "2 µM"}
{"structure": "Clc1ccc(C(c2ccccc2)n2nnc3ccccc32)cc1", "method": "broth dilution", "endpoint": "MFC", "result": ">256 µg/mL"}
{"structure": "CN(CC(=O)Nc1cccc([N+](=O)[O-])c1)CC(O)(Cn1cncn1)c1ccc(F)cc1F", "endpoint": "MIC80", "result": ">64 µg/mL"}
{"structure": "O=C(c1ccccc1)C(c1ccccc1)n1cncn1", "method": "agar", "endpoint": "MIC90", "result": ">256 µg/mL"}
{"structure": "C[C@@H](N1CCN(Cc2cn(Cc3ccc(Cl)cc3Cl)c3c(Cl)cccc23)CC1)[C@](O)(Cn1cncn1)c1ccc(F)cc1F", "strain": "ATCC 6258", "method": "resazurin", "endpoint": "MIC80", "result": "1 µg/mL"}
{"structure": "NC(Cc1ccccc1)C(=O)NC(CC1C=Cc2ccccc21)C(=O)NC(CS)C(=O)O", "strain": "ATCC 6258", "method": "broth dilution", "endpoint": "MFC", "result": "719 µg/mL"}
{"structure": "c1ccc(C(c2ccccc2)n2nnc3ccccc32)cc1", "method": "agar", "endpoint": "MIC90", "result": ">256 µg/mL"}
{"structure": "O=C1OCC(c2cccs2)=C1c1ccc(OCC(O)(Cn2cncn2)c2ccc(F)cc2F)cc1", "strain": "ATCC 6258", "method": "broth dilution", "endpoint": "MIC50", "result": "8 µg/mL"}
{"structure": "C=CC(C)(C)c1cc(C2CC(=O)c3c(cc(O)c(CC=C(C)C)c3O)O2)c(O)cc1O", "strain": "laryngeal prosthesis isolate", "method": "agar diffusion / agar", "endpoint": "zone", "tested at": "2 mg/mL", "result": "12 mm"}
{"structure": "Clc1ccc(C(c2ccccc2)N2CCN(CCn3ccnc3)CC2)cc1", "method": "agar", "endpoint": "MIC90", "result": ">256 µg/mL"}
{"structure": "CCOc1ccc2nc3cc(N=C4NC(=O)/C(=C\\C=C\\c5ccc([N+](=O)[O-])o5)S4)ccc3c(N)c2c1", "method": "broth dilution", "endpoint": "MFC", "result": ">1000 µg/mL"}
{"structure": "C[C@@H](N1CCN(Cc2cn(Cc3cccc(C(F)(F)F)c3)c3c(F)cccc23)CC1)[C@](O)(Cn1cncn1)c1ccc(F)cc1F", "strain": "ATCC 6258", "method": "resazurin", "endpoint": "MIC80", "result": "1 µg/mL"}
{"structure": "OC(CCn1ccnc1)c1cccc(C(O)c2ccc(Cl)cc2)c1", "strain": "RTCC 1001", "method": "broth dilution", "endpoint": "MIC", "result": ">64 µg/mL"}
{"structure": "C[C@@H](N1CCN(Cc2cn(Cc3ccc(Cl)cc3Cl)c3ccc(C#N)cc23)CC1)[C@](O)(Cn1cncn1)c1ccc(F)cc1F", "strain": "ATCC 6258", "method": "resazurin", "endpoint": "MIC80", "result": "0.5 µg/mL"}
{"structure": "Cc1ccc(-n2cc(C(C)(C)O)nn2)cc1C", "strain": "URM 109", "method": "broth dilution", "endpoint": "inhibition", "tested at": "2048 µg/mL", "result": "0%"}
{"structure": "CC(=O)Nc1ccc(C(=O)N/N=C/c2ccc(N(C)C)cc2)cc1", "strain": "ATCC 6258", "method": "broth dilution", "endpoint": "EC50", "result": "310 µM"}
{"structure": "Cc1ccc(-c2c3c(N)c4c(nc3nc3c2c(C)nn3-c2ccccc2)CCCCC4)cc1", "strain": "CCC 117", "method": "broth dilution / absorbance", "endpoint": "MIC50", "result": "62.5 µg/mL"}
{"structure": "CC(C)(O)c1cn(-c2cccc3ccccc23)nn1", "strain": "URM 109", "method": "broth dilution", "endpoint": "inhibition", "tested at": "2048 µg/mL", "result": "0%"}